{"source": "patent US20130289246A1", "target": "HA of A/Singapore/1/1957 (H2N2), on VLP (Influenza A virus (H2N2))", "test": "cell-based or functional assay", "data": [{"substance": "murine hybridoma mAb S139/1 (antibody)", "values": [{"measurement": "HAI activity", "value": "> 50", "unit": "µg/mL"}]}]}
